# Fitness of HIV-1 1203 Vif variants in SupT1-APOBEC3G cells

The measurements come from Langley et al. 2025, preprint (doi:10.1101/2025.10.20.683452).

Scanned stretch, residues 12 to 115 of Vif from HIV-1 1203 (a subtype B primary isolate):
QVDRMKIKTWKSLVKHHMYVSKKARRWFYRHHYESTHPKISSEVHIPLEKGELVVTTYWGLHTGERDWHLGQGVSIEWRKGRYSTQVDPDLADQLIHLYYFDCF

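Pooled viruses with one designed change each in Vif went through two 72 h rounds in SupT1 cells expressing APOBEC3G. Each of three replicates was sequenced after round two and set against the merged round-one pool. The overlap of vif with pol had been removed, so integrase is unaffected.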

Scale: log2 enrichment, wild type = 0; negative values mean that the variant was depleted.
Substitutions are written as wild-type residue, site number, new residue.
This list holds changes to histidine only.
The median of three replicates is given.
Input reads are the counts in the merged round-one pool, before selection.
Replicates agree only moderately (rank correlation about 0.4-0.65); scores from under about 50 input reads tend to be too high.

| change | input reads | log2 enrichment (median) |
|---|---|---|
| D14H | 296 | -1.73 |
| K19H | 646 | -2.18 |
| T20H | 27 | 0.71 |
| K22H | 261 | -2.76 |
| V25H | 23 | -1.40 |
| Y30H | 147 | -2.82 |
| V31H | 317 | -2.49 |
| K33H | 22 | 1.19 |
| R36H | 436 | -2.07 |
| W38H | 206 | -2.91 |
| S46H | 81 | -0.89 |
| P49H | 348 | -1.68 |
| K50H | 21 | -0.88 |
| V55H | 396 | -1.38 |
| P58H | 1311 | -2.02 |
| L64H | 171 | -2.10 |
| T74H | 24 | 1.32 |
| G75H | 422 | -1.99 |
| E76H | 316 | -2.02 |
| D78H | 20 | 1.12 |
| W79H | 18 | 0.08 |
| G82H | 379 | 0.79 |
| Q83H | 466 | -2.70 |
| V85H | 264 | -2.55 |
| S86H | 332 | -2.33 |
| E88H | 1803 | -2.05 |
| T96H | 243 | -2.42 |
| Q97H | 394 | -2.06 |
| D99H | 42 | -0.68 |
| P100H | 189 | -1.46 |
| D101H | 20 | 0.94 |
| D104H | 30 | -1.36 |
| Y111H | 17 | -0.58 |
| F112H | 104 | -2.49 |
| D113H | 3154 | -0.83 |
| C114H | 52 | -4.15 |
| F115H | 132 | -1.53 |

The first 3 entries again:

change	input reads	log2 enrichment (median)
D14H	296	-1.73
K19H	646	-2.18
T20H	27	0.71

Some changes are missing from the data or left out.
The authors note that some positive scores may be noise, and some enriched variants failed when tested singly.